Pooled drug test results. Numbers come from NIAID ChemDB, via PubChem.

Shared fields: cytotoxicity tests; measure: CC50

Two numbers with a dash give a range or band.

structure	cell line	read by	value
Cc1cn([C@H]2C[C@H](N=[N+]=[N-])[C@@H](CO)O2)c(=O)nc1N	CFU-GM	-	36 µM
O=C(NC1N=C(c2ccccc2)c2ccccc2NC1=O)c1cc(F)cc2c1OCOC2	HEP-2	-	4.6 µM
CC(/C=C/C=C(\C)CC(=O)O)=C\C=C\C=C(C)\C=C\C(C)=C(/C)C(=O)O	RAJI	ATP	>26 µM
CCn1cc(C(N)=O)c(=O)c2ccc(-c3cccnc3)cc21	VERO	-	>50 µg/mL
Nc1c(S(=O)(=O)O)cc(Nc2ccc(Nc3nc(Cl)nc(Nc4ccccc4S(=O)(=O)O)n3)c(S(=O)(=O)O)c2)c2c1C(=O)c1ccccc1C2=O	MOLT-4/H9(HIV-1(IIIB))	-	10–100 µM
[N-]=[N+]=NCCCCCCCCCCCC(=O)OC[C@@H]1O[C@H](n2cc(F)c(N)nc2=O)CS1	MAGI	MTT	>200 µM
Nc1nc2c(ncn2COC(CO)CO)c(=O)[nH]1	P3HR-1	-	11 µg/mL
CC(C)C(=O)NC1N=C(c2ccccc2)c2ccccc2NC1=O	VERO	-	2.5 µM
Nc1nc(N)c2ncn(CCOCP(=O)(O)O)c2n1	C3	-	>200 µM
C#CC[C@@H](C(=O)N[C@H](/C=C/C(=O)OCC)C[C@@H]1CCNC1=O)n1cccc(NC(=O)c2cc(C)on2)c1=O	H1-HELA	-	572 µM
Nc1nc(N)c2ncn(C[C@@H](CO)OCP(=O)(O)O)c2n1	C3	-	>200 µM
Nc1ccn([C@H]2CC[C@@H](CO)O2)c(=O)n1	HB611	trypan blue	>200 µg/mL
CCCCc1ccc2nc(NC(=O)OC)[nH]c2c1	E6	-	0.03 µg/mL
O=C(NC1N=C(c2ccccc2)c2ccccc2NC1=O)c1cccc([N+](=O)[O-])c1	VERO	-	2 µM
CCCCCCCCCCCCCC(=O)OC[C@@H]1O[C@H](n2cc(F)c(N)nc2=O)CS1	MAGI	MTT	>200 µM
CN(C)c1nc(N)nc2c1ncn2CCOCP(=O)(O)O	P3HR-1	-	0.1 µg/mL
COC(=O)N[C@H](C(=O)N1CCC[C@H]1c1nc2ccc(-c3csc4c(-c5ccc(-c6cnc([C@@H]7CCCN7C(=O)[C@H](NC(=O)OC)c7ccccc7)[nH]6)cc5)csc34)cc2[nH]1)C(C)C	VERO E6	resazurin	>50 µM
O=c1c(O)c(-c2ccccc2)oc2cc(O)cc(O)c12	HCT-8	-	>100 µM
CCn1cc(C(N)=O)c(=O)c2ccc(Cl)cc21	VERO	-	>100 µg/mL
CC(C)CCn1c(=O)/c(=C2\Nc3ccc(NS(C)(=O)=O)cc3S(=O)(=O)N2)c(=O)c2cccn21	HCV Huh-7/C24	-	>1 µM
Cc1ccc(-n2cc(C(N)=O)c(=O)c3ccc(-c4ccncc4)cc32)cc1C	VERO	-	>100 µg/mL
Cc1cn([C@H]2C[C@H](N=[N+]=[N-])[C@@H](COP(=O)(OCCSC(=O)C(C)C)OCCSC(=O)C(C)C)O2)c(=O)[nH]c1=O	MOLT-4/8	MTT	48.5 µM
CCCn1cc(C(N)=O)c(=O)c2ccc(-c3ccncc3)cc21	VERO	-	>6.25 µg/mL
CCNC(=S)N/N=C(\c1ccccc1)c1ccccn1	CEM-GFP	propidium iodide	>10 µM
O=c1[nH]cnc2c1ncn2[C@H]1CC[C@@H](CO)O1	MOLT-4/8(r)AZT(250)	MTT	2052 µM
C[C@H]1[C@H](C)CC[C@]2(C(=O)O)CC[C@]3(C)C(=CC[C@@H]4[C@@]5(C)CC[C@H](O)C(C)(C)[C@@H]5CC[C@]43C)[C@H]12	BJ	ATP	>26 µM
CNC(=S)N/N=C(\c1ccccc1)c1ccccn1	CEM-GFP	propidium iodide	>10 µM
CC1CCCC23CC4C(CC12C)C4(C)C3	HEK 293	ATP	>26 µM
S=C(N/N=C(/c1ccccn1)C1C=CC=CN1)c1ccccc1	CEM-GFP	propidium iodide	1.2 µM
O=C(Nc1cccc(C(F)(F)F)c1)NC1N=C(c2ccccc2)c2ccccc2NC1=O	HEP-2	-	9.7 µM
CCn1cc2c(=O)ncnc-2c2ccc(-c3ccncc3)cc21	VERO	-	>100 µg/mL
CC/C=C\C[C@@H]1[C@@H](CC(=O)OC)CC[C@H]1O	HEK 293	ATP	>26 µM
O=C(O)/C=C/c1cc(C(=O)O)c(O)c2nc(/C=C/c3ccc(O)c(O)c3)ccc12	HeLaP4	MTT	>100 µM
CCCCC#CCSc1ccccc1OC(C)=O	MDM	-	100–200 µM
Nc1ncnc2c1ncn2[C@@H]1C[C@H](CO)[C@@H](O)[C@@H]1O	HB611	trypan blue	14 µg/mL
COC(=O)Nc1nc2ccc(Sc3ccccc3)cc2[nH]1	E6	-	0.2 µg/mL
COC(=O)N[C@H](C(=O)N1CCC[C@H]1c1ncc(-c2ccc(-c3ccc(-c4cnc([C@@H]5CCCN5C(=O)[C@@H](NC(=O)OC)C(C)C)[nH]4)cc3)cc2)[nH]1)C(C)C	SNB-78	ATP	15 µM
Cc1cn([C@H]2C=C[C@@H](CO)O2)c(=O)[nH]c1=O	HB611	trypan blue	>200 µg/mL
c1ccc2[nH]c(-c3cscn3)nc2c1	E6	-	>3 µg/mL
CC(C)OC(=O)[C@H](C)N[P@](=O)(OC[C@H]1O[C@@](C#N)(c2ccc3c(N)ncnn23)[C@](C)(O)[C@@H]1OC(=O)C(C)C)Oc1ccccc1	PC-3	ATP	40 µM
CC/C=C\C[C@@H]1[C@@H](CC(=O)OC)CC[C@@H]1O	RAJI	ATP	>26 µM
CN(C)c1ncnc2c1ncn2CCOCP(=O)(O)O	P3HR-1	-	>100 µg/mL
COC(=O)Nc1nc2ccccc2[nH]1	E6	-	>3 µg/mL
CCc1nc2ccccn2c1C(=O)c1ccco1	U1	-	>100 µM
S=C(N/N=C(/c1ccccn1)C1C=CC=CC1)c1ccccc1	CEM-GFP	propidium iodide	>10 µM
O=c1c(-c2ccc(O)cc2)coc2cc(O)cc(O)c12	HCT-8	-	>100 µM
CC(C)CCn1c(=O)/c(=C2\Nc3ccccc3S(=O)(=O)N2)c(=O)c2cccn21	HCV Huh-7/C24	-	>100 µM
NC(=S)N/N=C(\c1ccccc1)c1ccccn1	CEM-GFP	propidium iodide	>10 µM
Nc1nc(NC(c2ccccc2)c2ccccc2)c2ncn(CCOCP(=O)(O)O)c2n1	P3HR-1	-	38 µg/mL
COC(=O)Nc1nc2ccc(C(=O)c3cccs3)cc2[nH]1	E6	-	0.03 µg/mL
NC(=O)CCNC(=O)c1ccccc1SC(=O)c1cccnc1	U1 (TNF-alpha induced)	MTS	>100 µM
NC(=O)c1ncn([C@@H]2O[C@H](CO)[C@@H](O)[C@H]2O)n1	APC103	neutral red	78 µM
CCn1cc(C(N)=O)c(=O)c2ccc(-c3ccc(N)cc3)cc21	VERO	-	>6.25 µg/mL
COc1cc([C@H]2Oc3cc([C@H]4Oc5cc(O)cc(O)c5C(=O)[C@@H]4O)ccc3O[C@@H]2CO)ccc1O	HCT-8	-	>100 µM
C=CCNC(=S)N/N=C(\c1ccccc1)c1ccccn1	CEM-GFP	propidium iodide	>10 µM

Rows are shuffled and stem from different studies. Blank or dashed fields: not listed here. CCn is the concentration with n% toxicity to the cells.